Measured values from several laboratories, pooled; numbers as filed in NIAID ChemDB.

Common to all: toxicity to cultured cells; cell line: MT-4; measure: CC50

Neighbouring rows are from separate reports.

compound,method,result
Cc1cc(C#N)cc(C)c1Oc1nc(Nc2ccc(C#N)cc2)nc(N)c1Br,MTT,>4.595 µM
CCC(C)Oc1cc(N)nc(Sc2ccc(C)cc2)n1,,300 µM
Cc1nc(CCCCCCC(=O)c2ccccc2)n2nc(N3CCCC3)ccc12,,<0.03 µM
CC1=C(/C=C/C(C)=C/C=C/C(C)=C/C(=O)O)C(C)(C)CCC1,,>10 µg/mL
COc1ccc2c(Cc3c[nH]c4ccc(Br)cc34)c(OC(C)=O)ccc2c1,,19 µM
CCC(C)Oc1cc(=O)[nH]c(Sc2ccccc2C)n1,,125 µM
Cc1nc(CCCCCCC(O)c2ccccc2)n2nc(Cl)ccc12,,250 µM
CO[C@@H]1C=C2C3CC[C@H]([C@H](C)/C=C/C(C)C(C)C)[C@@]3(C)CCC2[C@@]2(C)CC[C@H](O)C[C@]12O,,31.3 µM
COc1ccc2c(Cc3c(C)[nH]c4ccccc34)c(OC(C)=O)ccc2c1,,18 µM
CC(C)(C)C(=O)SCCOP(=O)(CC[C@H]1CO[C@@H](n2cnc3c(N)ncnc32)[C@@H]1F)OCCSC(=O)C(C)(C)C,MTT,80 µM
Nc1ncnc2c1ncn2CCOCP(=O)(O)O,absorbance,>227 µM
CNc1ccc2c(C)nc(CCCCCCC(=O)c3ccccc3)n2n1,,25 µM
C[C@@]1(CO)CC[C@H](c2c[nH]c3c(N)ncnc23)C1,,>100 µM
CCCCCCCCCCCCCCCCCCOC1OC(COS(=O)(=O)O)C(OC2OC(COS(=O)(=O)O)C(OC3OC(COS(=O)(=O)O)C(OC4OC(COS(=O)(=O)O)C(OC5OC(COS(=O)(=O)O)C(OC6OC(COS(=O)(=O)O)C(OS(=O)(=O)O)C(OS(=O)(=O)O)C6O)C(OS(=O)(=O)O)C5O)C(O)C4OS(=O)(=O)O)C(O)C3OS(=O)(=O)O)C(OS(=O)(=O)O)C2O)C(OS(=O)(=O)O)C1O,,748 µg/mL
Cc1cc(Br)cc(S(=O)(=O)c2cccc(N)c2C#N)c1,,>200 µM
Cc1ccnc2c1NC(=O)c1cccnc1N2C1CC1,MTT,>200 µM
Cc1nc(CCCCCC(=O)c2ccccc2)n2nc(Cl)ccc12,,250 µM
COc1ccc2ccc(OC(C)=O)c(Cc3c(-c4ccccc4)[nH]c4ccccc34)c2c1,,15 µM
CCCCOc1cc(C)cc(S(=O)(=O)c2cccc(N)c2C#N)c1,,11 µM
N#Cc1cc(Cl)cc(Oc2cc(OCc3[nH]nc4cnccc34)ccc2Cl)c1,,>8.3 µM
N#Cc1c(N)cccc1S(=O)(=O)c1cccc(C(F)(F)F)c1,,>200 µM
CC(=O)Oc1ccc2cc(Br)ccc2c1Cc1c(-c2ccccc2)[nH]c2ccccc12,,8 µM
CCOc1ccc(NC(=O)Nc2nc(NCCc3ccc(OC)c(OC)c3)nc(Oc3cc(=O)oc4ccccc34)n2)cc1,MTT,30.15 µg/mL
Cc1cn([C@H]2C[C@H](N=[N+]=[N-])[C@@H](CO)O2)c(=O)[nH]c1=O,MTT,>7.5 µM
CC(C)c1c(CO)cn(Cc2ccncc2)c1Sc1cc(F)cc(F)c1,MTT,60 µM
Cc1nc(CCCCCCC(=O)c2ccccc2)n2nc(-n3ccnn3)ccc12,,26 µM
CCCCSc1nc(Sc2ccccc2)cc(=O)[nH]1,,≥200 µM
Cc1cc(C#N)cc(C)c1Oc1ccnc(NC2CCN(CC(=O)Nc3ccc(O)cc3)CC2)n1,MTT,2.18 µM
O=C(O[C@@H]1Cc2c(O)cc(O)cc2O[C@@H]1c1ccc(O)c(O)c1)c1cc(O)c(O)c(O)c1,,4.6 µg/mL
O=[N+]([O-])c1ccccc1S(=O)(=O)c1ccccc1,,>200 µM
CCCCCCCCCCCCOC1OC(COS(=O)(=O)O)C(OC2OC(COS(=O)(=O)O)C(OC3OC(COS(=O)(=O)O)C(OC4OC(COS(=O)(=O)O)C(OC5OC(COS(=O)(=O)O)C(OC6OC(COS(=O)(=O)O)C(OS(=O)(=O)O)C(OS(=O)(=O)O)C6O)C(OS(=O)(=O)O)C5OS(=O)(=O)O)C(O)C4OS(=O)(=O)O)C(OS(=O)(=O)O)C3O)C(OS(=O)(=O)O)C2O)C(O)C1OS(=O)(=O)O,,990 µg/mL
Cc1cc(C#N)cc(C)c1Oc1ccnc(NC2CCN(CC(=O)Nc3cccc(Cl)c3)CC2)n1,MTT,1.263 µM
COc1ccc2c(Cc3c(-c4ccccc4)[nH]c4ccccc34)c(OC(C)=O)ccc2c1,,19 µM
Cc1cc(C#N)cc(C)c1Oc1ccnc(NC2CCN(CC(=O)Nc3ccc(Cl)cc3)CC2)n1,MTT,0.998 µM
Cc1cc(C)cc(S(=O)(=O)c2cccc(F)c2C#N)c1,,200 µM
COc1ccc2ccc(OC(C)=O)c(Cc3c[nH]c4ccc(Br)cc34)c2c1,,30 µM
CCOC(=O)c1cn(Cc2ccccn2)c(Sc2cc(Cl)cc(Cl)c2)c1C(C)C,MTT,≥200 µM
CCCCCCCCCCCCCCCCOC1OC(COS(=O)(=O)O)C(O)C(OC2OC(COS(=O)(=O)O)C(OS(=O)(=O)O)C(OC3OC(COS(=O)(=O)O)C(O)C(OC4OC(COS(=O)(=O)O)C(OS(=O)(=O)O)C(OC5OC(COS(=O)(=O)O)C(OS(=O)(=O)O)C(OS(=O)(=O)O)C5OS(=O)(=O)O)C4OS(=O)(=O)O)C3OS(=O)(=O)O)C2OS(=O)(=O)O)C1OS(=O)(=O)O,,>471 µg/mL
C1CNCCNCC(CCCC2CNCCNCCCNCCNC2)CNCCNC1,,290 µM
Nc1nc2c(ncn2[C@@H]2OC[C@H](CCP(=O)(O)O)[C@H]2F)c(=O)[nH]1,MTT,98 µM
C[C@H](CCC=C(CO)CO)[C@H]1CC[C@@]2(C)C3=CC[C@H]4C(C)(C)C(=O)CC[C@]4(C)C3=CC[C@]12C,,>15.6 µM
COc1ccc(CCNc2nc(NC(=O)Nc3ccc(C)cc3)nc(Oc3cc(=O)oc4ccccc34)n2)cc1OC,MTT,74.98 µg/mL
Nc1ncnc2c1ncn2[C@@H]1O[C@H](CO)[C@H]1CO,,>30 µM
CC(=O)Oc1ccc2ccccc2c1Cc1c[nH]c2ccccc12,,30 µM
CC(C)[C@@H](C)/C=C/[C@@H](C)[C@H]1CC[C@H]2C3=CC=C4C[C@@H](O)CC[C@]4(C)[C@H]3CC[C@]12C,,1000 µM
COc1ccc(CCNc2nc(NC(=S)Nc3ccc(Br)cc3)nc(Oc3cc(=O)oc4ccccc34)n2)cc1OC,MTT,62.7 µg/mL
CC(C)c1c(CO)cn(Cc2ccncc2)c1Sc1cccc(Cl)c1,MTT,65 µM
C[C@@H]1[C@H](O)[C@@H](CO)O[C@H]1n1ccc(N)nc1=O,,≥100 µM
Nc1ncnc2c1ncn2C/C=N/OCP(=O)(O)O,absorbance,>1000 µM
C(CC1CNCCNCCNCCNCCNC1)CC1CNCCNCCNCCNCCNC1,,4.5 µM
Cc1nc(CCCCCCC(=O)c2ccccc2)n2nc(-n3cnnc3)ccc12,,260 µM
C1CNCCNCCNCCNCCN1,,8.3 µM
Cc1cc(C#N)cc(C)c1Oc1ccnc(NC2CCN(CC(=O)Nc3ccc(C#N)cc3F)CC2)n1,MTT,1.962 µM
C[C@H](CC[C@H](O)C(C)(O)CO)[C@H]1CC[C@@]2(C)C3=CC[C@H]4C(C)(C)C(=O)CC[C@]4(C)C3=CC[C@]12C,,15.6 µM
Nc1cc(Cl)nc(Nc2cccc3ccccc23)n1,,143 µM
CCCOc1cc(C)cc(S(=O)(=O)c2cccc(N)c2C#N)c1,,9 µM

The last 7 rows once more:

compound,method,result
C(CC1CNCCNCCNCCNCCNC1)CC1CNCCNCCNCCNCCNC1,,4.5 µM
Cc1nc(CCCCCCC(=O)c2ccccc2)n2nc(-n3cnnc3)ccc12,,260 µM
C1CNCCNCCNCCNCCN1,,8.3 µM
Cc1cc(C#N)cc(C)c1Oc1ccnc(NC2CCN(CC(=O)Nc3ccc(C#N)cc3F)CC2)n1,MTT,1.962 µM
C[C@H](CC[C@H](O)C(C)(O)CO)[C@H]1CC[C@@]2(C)C3=CC[C@H]4C(C)(C)C(=O)CC[C@]4(C)C3=CC[C@]12C,,15.6 µM
Nc1cc(Cl)nc(Nc2cccc3ccccc23)n1,,143 µM
CCCOc1cc(C)cc(S(=O)(=O)c2cccc(N)c2C#N)c1,,9 µM

Blank or dashed fields: not listed here. CCn: concentration that lowers growth or viability of the cells by n%.